The values below come from patent US5414001A, “Antineoplastic pyrrolo[4,3,2-de]quinolin-8(1H)-ones” (American Cyanamid Company, priority 1993, dated 1995).

Assay in all cases: Antibacterial agar diffusion assay
Type in all cases: cell-based
Holding throughout (conditions): H = hazy zones
Background: A growth-free zone around the sample is the usual read-out of agar diffusion tests.

One experiment has as its system C. freundii 395.
The next experiment relates to K. pneumoniae 53.
The next experiment deals with E. coli 300. Further details: concentration or dose not given beside the values.

Turning to `Cn1cc2c3c1C(=O)C(N)=CC3=NCC2.O=C(O)C(F)(F)F`, the “ZONES OF INHIBITION” value came out at 10H in the experiment on C. freundii 395 (250 microgram/ml); 14 MM in the experiment on C. freundii 395 (1000 microgram/ml); 13H in the experiment with K. pneumoniae 53 (250 microgram/ml); 17H with K. pneumoniae 53 (1000 microgram/ml); 10H in the experiment with E. coli 300 (250 microgram/ml); 16 MM in the experiment on E. coli 300 (1000 microgram/ml).
